Where a SMILES comes first, the peptide text is derived from it. The star is where a group is joined. Succinyl(4-O-cholesteryl) = CC(C)CCC[C@@H](C)[C@H]1CC[C@H]2[C@@H]3CC=C4C[C@@H](OC(=O)CCC(=O)*)CC[C@]4(C)[C@H]3CC[C@]12C
The molecules below were run on RSV A long virus strain. Settings: CC50/IC50, HEp-2 cells.
Assay type: cell-based
Protocol: In this embodiment, an RSV-A long virus strain was used as an infection virus in the present disclosure. The anti-RSV activity of the synthesized polypeptide was determined through CPE detection.
The inhibitory activity of the compounds of Table 1-1-Table 1-5, positive polypeptide in Table 1-11, and positive control T-118 against the RSV-A long virus strain was detected.
Human Epithelial Pharyngeal Carcinoma Cells (HEp-2) were from the American Type Culture Collection (ATCC), with a catalog number CCL-23. The cells were cultured in a DMEM culture solution in which 10% fetal bovine serum, 1% sodium pyruvate, 1% nonessential amino acids, 2 mM glutamine, 100 U/mL penicillin, and 100 μg/mL streptomycin were added. The RSV A long virus strain was from the ATCC, with a catalog number VR-26.
This study used a plaque reduction experiment to detect the in-vitro activity of a test sample against the RSV A long virus strain. The test sample and a control compound were tested at 8 concentrations in duplicated wells. The HEp-2 cells were digested with trypsin and then diluted to a concentration of 300,000 cells per milliliter by using an experimental culture solution. The diluted cells were added to a 96-well cell test board, with 100 μL per well, corresponding to 30000 cells per well. The cells were cultured overnight in a 37° C. incubator with 5% CO2. On the second day, the test sample was diluted in an experimental culture medium at a fold ratio. The sample diluted at a fold ratio and an equal volume of virus (100 PFU per well) were well mixed and incubated at 37° C. in 5% CO2 for 1 h. Then, the culture solution in the 96-well cell test board was discarded, the sample virus mixed solution (200 μL) was added to the 96-well cell culture plate, and incubated at 37° C. in 5% CO2 for 2 hours. After 2 h, the sample virus mixed solution was discarded, and 200 μL of maintenance culture medium containing 0.8% CMC and the corresponding concentration of the test sample was added. A cell control (cells, without compound treatment or viral infection) and a viral control (cell infection virus, without compound treatment) were set. The cells were cultured for 1 day in the 37° C. incubator with 5% CO2. One day after viral infection, the culture medium was discarded, the cells were fixed with 4% paraformaldehyde, and then permeabilization was performed with 0.5% Triton X-100. After the plate was washed with DPBS, an RSV-specific antibody (RSV antibody, diluted 1:3000) was added and incubated at 37° C. for 1 h. Then, a secondary antibody (donkey anti-goat IgG, diluted 1:500) and incubated at 37° C. for 1 h. The secondary antibody was discarded, a TrueBlue solution was added, dyeing was performed for 10 min; and the plate was washed with running water and then air-dried, and the number of spots in each well was counted by using a microplate imaging counter. Raw data was used for calculating the antiviral activity of the samples.
The raw data for plaque counts and cell viability tests were used for analyzing the antiviral activity and cytotoxicity of the test samples, respectively. A calculation formula was shown as follows.
% inhibition rate=100−(sample value-cell control average value)/(virus control average value-cell control average value)×100%
Non-linear fitting analysis was performed on the inhibition rate of the sample by using GraphPad Prism (version 10), so as to calculate the IC50 and CC50 values for the sample.
IC50: in an in-vitro antiviral activity experiment, IC50 represented an inhibition ability indicator of a compound to be tested against the Hep-2 cells infected by the RSV A long virus strain.

| Molecule | Safety index (SI) |
| --- | --- |
| Ac-FDFDEFDASISQVNEKINESLAFIRLAFIRKSDELLEAAAKK-NH2 [Compound 24] | >3.02 |
| CC[C@H](C)[C@H](NC(=O)[C@H](CCCCN)NC(=O)[C@H](CCCCN)NC(=O)[C@H](CC(C)C)NC(=O)[C@H](CO)NC(=O)[C@H](CCC(=O)O)NC(=O)[C@H](CCC(=O)O)NC(=O)[C@@H](NC(=O)[C@H](CCCCN)NC(=O)[C@H](CCCCN)NC(=O)[C@H](CC(N)=O)NC(=O)[C@@H](NC(=O)[C@H](CCC(=O)O)NC(=O)[C@H](CCC(=O)O)NC(=O)[C@@H](NC(=O)[C@H](CCCCN)NC(=O)[C@H](CCCCN)NC(=O)[C@H](CC(=O)O)NC(=O)[C@H](Cc1ccccc1)NC(=O)[C@H](CCC(=O)O)NC(=O)[C@H](CC(=O)O)NC(=O)[C@H](CO)NC(C)=O)[C@@H](C)CC)C(C)C)[C@@H](C)CC)C(=O)N[C@@H](CCC(=O)O)C(=O)N[C@@H](CCC(=O)O)C(=O)N[C@@H](CO)C(=O)N[C@@H](CC(=O)O)C(=O)N[C@@H](CCCCN)C(=O)N[C@@H](CCCCN)C(=O)N[C@@H](CC(C)C)C(=O)N[C@@H](CCC(=O)O)C(=O)N[C@@H](C)C(=O)N[C@@H](C)C(=O)N[C@@H](C)C(=O)N[C@@H](CCCCN)C(=O)N[C@@H](CCCCNC(=O)CCC(=O)O[C@H]1CC[C@@]2(C)C(=CC[C@H]3[C@@H]4CC[C@H]([C@H](C)CCCC(C)C)[C@@]4(C)CC[C@@H]32)C1)C(N)=O [Compound 16] (Ac-SDEFDKKIEEVNKKIEESLKKIEESDKKLEAAAKK(Succinyl(4-O-cholesteryl))-NH2) | 1655 |
| CC[C@H](C)[C@H](NC(=O)[C@H](CCCCN)NC(=O)[C@H](CCC(=O)O)NC(=O)[C@H](CC(C)C)NC(=O)[C@H](CO)NC(=O)[C@H](CCC(N)=O)NC(=O)[C@H](CC(N)=O)NC(=O)[C@@H](NC(=O)[C@H](CCCCN)NC(=O)[C@H](CCC(=O)O)NC(=O)[C@H](CC(N)=O)NC(=O)[C@@H](NC(=O)[C@H](CCC(N)=O)NC(=O)[C@H](CO)NC(=O)[C@H](C)NC(=O)[C@H](CC(=O)O)NC(=O)[C@H](Cc1ccccc1)NC(=O)[C@@H](NC(=O)[C@H](CC(C)C)NC(=O)[C@H](CCC(=O)O)NC(=O)[C@H](CC(=O)O)NC(=O)[C@H](Cc1ccc(O)cc1)NC(C)=O)C(C)C)C(C)C)[C@@H](C)CC)C(=O)N[C@@H](CCCNC(=N)N)C(=O)N[C@@H](CCCCN)C(=O)N[C@@H](CO)C(=O)N[C@@H](CC(=O)O)C(=O)N[C@@H](CCC(=O)O)C(=O)N[C@@H](CC(C)C)C(=O)N[C@@H](CC(C)C)C(=O)N[C@@H](Cc1c[nH]cn1)C(=O)N[C@@H](CC(N)=O)C(=O)N[C@H](C(=O)N[C@@H](CCC(=O)O)C(=O)N[C@@H](C)C(=O)N[C@@H](C)C(=O)N[C@@H](C)C(=O)N[C@@H](CCCCN)C(=O)N[C@@H](CCCCNC(=O)CCC(=O)O[C@H]1CC[C@@]2(C)C(=CC[C@H]3[C@@H]4CC[C@H]([C@H](C)CCCC(C)C)[C@@]4(C)CC[C@@H]32)C1)C(N)=O)C(C)C [Compound 30] (Ac-YDELVFDASQVNEKINQSLEKIRKSDELLHNVEAAAKK(Succinyl(4-O-cholesteryl))-NH2) | 415 |
| CC[C@H](C)[C@H](NC(=O)[C@H](CCCCN)NC(=O)[C@H](CCCCN)NC(=O)[C@H](CC(C)C)NC(=O)[C@H](CO)NC(=O)[C@H](CCC(=O)O)NC(=O)[C@H](CCC(=O)O)NC(=O)[C@@H](NC(=O)[C@H](CCCCN)NC(=O)[C@H](CCCCN)NC(=O)[C@H](CC(N)=O)NC(=O)[C@@H](NC(=O)[C@H](CCC(=O)O)NC(=O)[C@H](CCC(=O)O)NC(=O)[C@@H](NC(=O)[C@H](CCCCN)NC(=O)[C@H](CCCCN)NC(=O)[C@H](CCCCN)NC(=O)[C@H](CC(=O)O)NC(=O)[C@H](Cc1ccccc1)NC(=O)[C@H](CCC(=O)O)NC(=O)[C@H](CC(=O)O)NC(C)=O)[C@@H](C)CC)C(C)C)[C@@H](C)CC)C(=O)N[C@@H](CCC(=O)O)C(=O)N[C@@H](CCC(=O)O)C(=O)N[C@@H](CO)C(=O)N[C@@H](CC(=O)O)C(=O)N[C@@H](CCCCN)C(=O)N[C@@H](CCCCN)C(=O)N[C@@H](CC(C)C)C(=O)N[C@@H](CCC(=O)O)C(=O)N[C@@H](CCC(=O)O)C(=O)N[C@H](C(=O)NCC(=O)N[C@@H](CO)C(=O)NCC(=O)N[C@@H](CO)C(=O)NCC(=O)N[C@@H](CCCCNC(=O)CCC(=O)O[C@H]1CC[C@@]2(C)C(=CC[C@H]3[C@@H]4CC[C@H]([C@H](C)CCCC(C)C)[C@@]4(C)CC[C@@H]32)C1)C(N)=O)C(C)C [Compound 15] (Ac-DEFDKKKIEEVNKKIEESLKKIEESDKKLEEVGSGSGK(Succinyl(4-O-cholesteryl))-NH2) | 856 |
| CC[C@H](C)[C@H](NC(=O)[C@H](CO)NC(=O)[C@H](C)NC(=O)[C@H](CC(=O)O)NC(=O)[C@H](Cc1ccccc1)NC(=O)[C@H](CCC(=O)O)NC(=O)[C@H](CC(=O)O)NC(C)=O)C(=O)N[C@@H](CO)C(=O)N[C@@H](CCC(N)=O)C(=O)N[C@H](C(=O)N[C@@H](CC(N)=O)C(=O)N[C@@H](CCC(=O)O)C(=O)N[C@@H](CCCCN)C(=O)N[C@H](C(=O)N[C@@H](CC(N)=O)C(=O)N[C@@H](CCC(N)=O)C(=O)N[C@@H](CO)C(=O)N[C@@H](CC(C)C)C(=O)N[C@@H](CCC(=O)O)C(=O)N[C@@H](CCC(=O)O)C(=O)N[C@H](C(=O)N[C@@H](CCCNC(=N)N)C(=O)N[C@@H](CCCCN)C(=O)N[C@@H](CO)C(=O)N[C@@H](CC(=O)O)C(=O)N[C@@H](CCC(=O)O)C(=O)N[C@@H](CC(C)C)C(=O)N[C@@H](CC(C)C)C(=O)N[C@@H](Cc1c[nH]cn1)C(=O)N[C@@H](CC(N)=O)C(=O)N[C@@H](CCC(=O)O)C(=O)N[C@@H](C)C(=O)N[C@@H](C)C(=O)N[C@@H](C)C(=O)N[C@@H](CCCCN)C(=O)N[C@@H](CCCCNC(=O)CCC(=O)O[C@H]1CC[C@@]2(C)C(=CC[C@H]3[C@@H]4CC[C@H]([C@H](C)CCCC(C)C)[C@@]4(C)CC[C@@H]32)C1)C(N)=O)[C@@H](C)CC)[C@@H](C)CC)C(C)C [Compound 28] (Ac-DEFDASISQVNEKINQSLEEIRKSDELLHNEAAAKK(Succinyl(4-O-cholesteryl))-NH2) | 709 |
| CC[C@H](C)[C@H](NC(=O)[C@H](CCCCN)NC(=O)[C@H](CCCCN)NC(=O)[C@H](CC(C)C)NC(=O)[C@H](CO)NC(=O)[C@H](CCC(N)=O)NC(=O)[C@H](CC(N)=O)NC(=O)[C@@H](NC(=O)[C@H](CCCCN)NC(=O)[C@H](CCCCN)NC(=O)[C@H](CC(=O)O)NC(=O)[C@H](Cc1ccccc1)NC(=O)[C@H](CCC(=O)O)NC(=O)[C@@H](NC(=O)[C@H](CCCCN)NC(=O)[C@H](CCCCN)NC(=O)[C@H](CC(N)=O)NC(=O)[C@@H](NC(=O)[C@H](CC(C)C)NC(=O)[C@H](CCC(=O)O)NC(=O)[C@H](CC(=O)O)NC(=O)[C@H](CO)NC(C)=O)C(C)C)[C@@H](C)CC)[C@@H](C)CC)C(=O)N[C@@H](CCC(=O)O)C(=O)N[C@@H](CCC(=O)O)C(=O)N[C@@H](CO)C(=O)N[C@@H](CC(=O)O)C(=O)N[C@@H](CCCCN)C(=O)N[C@@H](CCCCN)C(=O)N[C@@H](CCCCN)C(=O)N[C@@H](CC(C)C)C(=O)N[C@@H](CCC(=O)O)C(=O)N[C@@H](C)C(=O)N[C@@H](C)C(=O)N[C@@H](C)C(=O)N[C@@H](CCCCN)C(=O)N[C@@H](CCCCN)C(N)=O [Compound 51] (Ac-SDELVNKKIEFDKKINQSLKKIEESDKKKLEAAAKK-NH2) | 322 |
